# Record: PubChem BioAssay AID1259414 (Drosophila RNAi Screening Center, 2018)
# Assay: 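Fly genes that alter Wolbachia amount inside host cells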 (primary screen)
# Cell system: Drosophila JW18 cells infected with Wolbachia
# Reagents: long dsRNA against Drosophila genes, 0.25 µg dsRNA per well of a 384-well plate
# Time to read-out: 5 days
# Challenge: cells persistently infected with Wolbachia before knock-down; no added drug
# Measured: 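Automated imaging of bacterial rRNA staining divided by host cell count, reported as plate-normalised robust z-score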
# Direction: Wolbachia per cell robust z: higher = more Wolbachia per host cell than the plate typical
# Call rule: 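Active if absolute robust z reaches 1.5 in two or more of three replicates, leaving out multi- or no-target dsRNAs, genes unexpressed in JW18 and A1 wells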
# In all, the deposit lists about 24,000 reagents; below is an unselected part of those that have a named target and a result. Over the whole deposit, about 1,210 (5%) were called active. 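Inactive calls also include excluded dsRNAs with several or no targets, genes unexpressed in JW18, and well A1, regardless of score.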
Target gene,dsRNA,"Wolbachia per cell robust z, rep 1","Wolbachia per cell robust z, rep 2","Wolbachia per cell robust z, rep 3",outcome
CG4459,DRSC15582,-0.988,0.532,0.506,inactive
Takl2,DRSC15650,0.158,0.707,1.33,inactive
dsd,DRSC13829,-0.863,-0.276,0.133,inactive
dsd,DRSC15850,-0.426,-0.55,0.335,inactive
CG15279,DRSC01935,-8.35,-0.62,-8.8,active
CG15279,DRSC27347,0.876,0.243,-4.34,inactive
Irk2,DRSC15569,-0.727,-1.37,-0.953,inactive
CG9259,DRSC03174,0.751,0.442,1.22,inactive
CG18744,DRSC15381,-0.415,-0.724,-0.667,inactive
CG12730,DRSC17885,-5.99,-0.141,-0.148,inactive
Gem3,DRSC11144,0.00467,-0.00941,-0.0673,inactive
CG11345,DRSC08176,-4.7,-1.49,2.08,inactive
CG11345,DRSC28509,-0.65,-0.513,-0.502,inactive
CG5498,DRSC11608,-2.8,-0.912,-0.807,inactive
Mybbp1A,DRSC18788,-0.744,-2.88,-2.08,active
RpL27A,DRSC00781,2.5,4.69,4.76,active
RpL27A,DRSC28466,1.63,2.44,2.39,active
CG33269,DRSC10585,-0.552,-0.857,-0.122,inactive
CG9215,DRSC20171,-0.768,0.606,0.852,inactive
CG6511,DRSC10656,-1.24,0.258,-0.192,inactive
Ance-3,DRSC02648,-5.71,0.171,1.43,inactive
Ance-3,DRSC02649,0.0385,-0.627,-0.463,inactive

Hits, of those listed so far:
Target gene,dsRNA,"Wolbachia per cell robust z, rep 1","Wolbachia per cell robust z, rep 2","Wolbachia per cell robust z, rep 3",outcome
CG15279,DRSC01935,-8.35,-0.62,-8.8,active
Mybbp1A,DRSC18788,-0.744,-2.88,-2.08,active
RpL27A,DRSC00781,2.5,4.69,4.76,active
RpL27A,DRSC28466,1.63,2.44,2.39,active

Next records:
Target gene,dsRNA,"Wolbachia per cell robust z, rep 1","Wolbachia per cell robust z, rep 2","Wolbachia per cell robust z, rep 3",outcome
CG15676,DRSC04267,0.675,0.499,0.762,inactive
CG15676,DRSC27015,-2.03,0.513,-0.794,inactive
Ptx1,DRSC16804,-4.61,-2.24,-0.272,inactive
Ptx1,DRSC25321,-0.247,-0.82,-0.602,inactive
CG30419,DRSC04208,-1.46,0.354,0.389,inactive
CG30419,DRSC04209,0.601,-0.427,0.107,inactive
CG30419,DRSC22519,0.822,1.03,-0.825,inactive
CG12995,DRSC19515,-0.487,-0.5,0.268,inactive
CG12995,DRSC27519,-0.479,0.353,-0.229,inactive
CG5541,DRSC19946,1.32,0.459,1.13,inactive
RagC-D,DRSC07239,0.517,0.582,0.436,inactive
Sumo,DRSC03611,-5.41,3.43,4.24,active
CG13545,DRSC04187,0.67,-0.203,-0.274,inactive
CG13545,DRSC25484,0.0162,-0.339,-2.88,inactive
CG16904,DRSC15161,-1.23,-7.35,-1.13,inactive
CG16904,DRSC25306,-0.37,-0.329,0.65,inactive
wcy,DRSC20132,1.49,0.949,-0.812,inactive
wcy,DRSC26455,-1.74,0.924,0.97,inactive
Ugt37A3,DRSC15937,0.0853,0.405,0.0204,inactive
CG32262,DRSC08165,0.769,0.686,-0.218,inactive
CG32262,DRSC29141,0.406,-0.899,0.00604,inactive
CG15209,DRSC19655,-0.64,0.413,-0.588,inactive
CG17271,DRSC15210,-1.04,0.473,-3.26,inactive
CG17271,DRSC22982,-0.645,-0.0978,-1.85,inactive
CG17271,DRSC25780,-0.00499,-0.454,-0.319,inactive
Nplp4,DRSC00391,0.0906,-0.0824,-0.462,inactive
Cdk8,DRSC11113,0.391,1.19,1.65,inactive
Cdk8,DRSC28684,-0.278,-0.181,0.68,inactive
Cdk8,DRSC41558,-1.25,0.808,1.14,inactive
sowi,DRSC12558,-1.18,-1.14,-0.377,inactive
sowi,DRSC24116,0.547,-0.0946,0.00519,inactive
cl,DRSC02118,0.302,-0.463,0.128,inactive
Eig71Ef,DRSC11153,0.938,0.821,0.016,inactive
CG16734,DRSC15143,1.28,1.47,-0.122,inactive
CG15225,DRSC23269,0.694,0.191,-0.506,inactive
CG15225,DRSC29370,1.07,0.153,1.18,inactive
CG30466,DRSC05556,0.16,0.166,0.255,inactive
CG13197,DRSC06322,-0.21,0.187,0.488,inactive
CG10657,DRSC09768,-7.58,0.00208,-1.91,inactive
CG10657,DRSC27483,-0.668,-0.642,-0.899,inactive
sls,DRSC08528,0.848,0.494,-0.174,inactive
sls,DRSC08540,-2.2,1.26,-2.3,active
sls,DRSC08670,0.0636,0.951,0.72,inactive
sls,DRSC40674,-2.97,-1.74,0.542,active
CG6793,DRSC10714,-0.439,-1.94,-1.51,inactive
CG6793,DRSC29291,0.735,0.0159,-0.000368,inactive
